Measured values from several laboratories, pooled; numbers as filed in NIAID ChemDB.

Common to all: whole-cell or culture tests; species: Plasmodium falciparum; read-out: EC50

Neighbouring rows are from separate reports. ECn: concentration that inhibits the pathogen or its effect by n%. An empty or dashed field is not shown.

smiles | mutations | cell line | read by | strain or isolate | value
C[C@H]1Cc2c([nH]c3cc(F)c(F)cc23)[C@@]2(N1)C(=O)Nc1ccc(Cl)cc12 | GNF-Pf4492-resistant I203L/P990R | - | SYBR Green / fluorescence | GNF-Pf4492R-2 | 0.00302 µM
N#Cc1nc2c(-c3nc4ccccc4[nH]3)c(N)n(CCCN3CCOCC3)c2nc1C#N | - | Erythrocytes | hypoxanthine uptake / radiometric | NF54 | 0.28 µM
CC(C)=CCCC1CC2CCC3CC(C)NC(=N1)N23 | - | - | LDH | D6 | 16.05 µM
CCCCCC(CCCCCC=O)NC(CCCC[NH3+])C(=O)NC(CCCC[NH3+])C(=O)NCCCCCCCCCCCC(=O)NC(CCCC[NH3+])C(=O)NC(C=O)CCCC[NH3+] | - | - | hypoxanthine uptake | NF54 | >10 µM
Cc1[nH]nc2c1C(c1cc(C#N)cc(C#N)c1)(C1CC=CC1)C(C#N)=C(N)O2 | - | - | radiometric | NF54 | 1.42 µM
CCN(CC)CCCC(C)n1c(N)c(-c2nc3ccccc3s2)c2nc(C#N)c(C#N)nc21 | - | Erythrocytes | hypoxanthine uptake / radiometric | NF54 | 0.04 µM
Cc1[nH]nc2c1C(c1cc(Br)cc(C#N)c1)(C1CC=CC1)C(C#N)=C(N)O2 | - | - | radiometric | NF54 | 0.43 µM
NC1=Nc2ccc(Cl)cc2C1(O)c1ccc(S(N)(=O)=O)cc1 | - | - | - | 3D7 | >5 µM
CCN(CC)CCCn1c(N)c(-c2nc3ccccc3[nH]2)c2nc(C#N)c(C#N)nc21 | - | Erythrocytes | hypoxanthine uptake / radiometric | NF54 | 0.09 µM
CC(C)=CCC[C@@H]1C[C@@H]2CCC[C@@H]3C[C@H](CCC=C(C)C)NC(=N1)N32 | - | - | LDH | D6 | 1.69 µM
CC(C)C1=C(O)c2ccccc2C(=O)C1=O | - | Erythrocytes | flow cytometry | 3D7 | 15.2 µM
Cc1[nH]nc2c1C(c1cc(Cl)cc(N3CCOCC3)c1)(C1CCC1)C(C#N)=C(N)O2 | - | - | radiometric | NF54 | 0.6 µM
CCN(CC)CCCC(C)n1c(N)c(-c2nc3ccccc3[nH]2)c2nc(C#N)c(C#N)nc21 | - | Erythrocytes | hypoxanthine uptake / radiometric | K1 | 0.04 µM
Cc1[nH]nc2c1C(c1cc(Cl)cc(C#N)c1)(C1CCC1)C(C#N)=C(N)O2 | - | - | radiometric | NF54 | >2.66 µM
CCCCCCCC(=O)NC(CCCC[NH3+])C(=O)NCCCCCCCC(=O)NC(CCCC[NH3+])C(N)=O | - | - | hypoxanthine uptake | FCR3 | 16 µM
OCCN1CCN(C(c2ccccc2)c2ccccc2)CC1 | - | - | SYBR Green / fluorescence | 7G8 | >2.5 µM
Fc1ccc(CC[C@@H]2C[C@@H]3CC[C@@H]4C[C@H](CCc5ccc(F)cc5)NC(=N2)N43)cc1 | - | - | LDH | D6 | 5.62 µM
NC1=Nc2ccc(Cl)cc2C1(O)C#Cc1ccccc1 | - | - | - | Dd2 | 1.127 µM
N#Cc1nc2c(-c3nc4ccccc4[nH]3)c(N)n(CCc3ccc(F)cc3)c2nc1C#N | - | Erythrocytes | hypoxanthine uptake / radiometric | NF54 | 0.32 µM
CC(C)CCC[C@@H]1C[C@@H]2CC[C@@H]3C[C@H](CCCC(C)C)NC(=N1)N32 | - | - | LDH | W2 | 2.7 µM
O=C1C(=O)c2ccccc2C(O)=C1c1ccc([N+](=O)[O-])cc1 | - | Erythrocytes | flow cytometry | 3D7 | 13.7 µM
CCCCCCCCCCCC(=O)NC(CCCC[NH3+])C(=O)NC(CCCC[NH3+])C(=O)NCCCCCCCCCCCC(=O)NC(CCCC[NH3+])C(=O)NC(C=O)CCCC[NH3+] | - | - | hypoxanthine uptake | NF54 | >10 µM
Cc1[nH]nc2c1C(c1cc(Cl)cc(-c3cccnc3)c1)(C1CCC1)C(C#N)=C(N)O2 | - | - | radiometric | NF54 | 0.7 µM
C[C@H]1Cc2c([nH]c3cc(Cl)c(F)cc23)[C@@]2(N1)C(=O)Nc1ccc(Cl)cc12 | Multidrug-resistant | - | SYBR Green / fluorescence | Dd2 (CM1) | 0.000671 µM
CC(C)=CCCC1CC2CCCC3CC(C)NC(=N1)N23 | - | - | LDH | D6 | 6.54 µM
COc1ccc(CCn2c(N)c(-c3nc4ccccc4[nH]3)c3nc(C#N)c(C#N)nc32)cc1OC | - | Erythrocytes | hypoxanthine uptake / radiometric | NF54 | 0.25 µM
NC1=Nc2ccc(Cl)cc2C1(O)C1CC1 | - | - | - | 3D7 | 0.104 µM
COC(=O)CCc1cccc(-c2cc(Cl)cc(C3(C4CCC4)C(C#N)=C(N)Oc4n[nH]c(C)c43)c2)c1 | - | - | radiometric | NF54 | 0.08 µM
CCCCCCCCCCCC(=O)NC(CCCC[NH3+])C(=O)NCCCCCCCCCCCC(=O)NC(CCCC[NH3+])C(N)=O | - | - | hypoxanthine uptake | FCR3 | 1.5 µM
Cc1[nH]nc2c1C(c1cc(C#N)cc(-c3ccc(C(=O)O)s3)c1)(C(C)C)C(C#N)=C(N)O2 | - | - | radiometric | TM90C2B | 1.25 µM
Cc1ccccc1CC1(O)C(N)=Nc2ccc(Cl)cc21 | - | - | - | 3D7 | 0.063 µM
CCCCCCCCCCCC(=O)NC(CCCC[NH3+])C(=O)NCCCC(=O)NC(CCCC[NH3+])C(N)=O | - | - | hypoxanthine uptake | NF54 | 2.1 µM
N#Cc1nc2c(-c3nc4ccccc4[nH]3)c(N)n(CC(F)(F)C(F)(F)C(F)(F)F)c2nc1C#N | - | Erythrocytes | hypoxanthine uptake / radiometric | NF54 | 0.36 µM
C#CCCC1CC2CCCC3CC(C)NC(=N1)N23 | - | - | LDH | W2 | 19.24 µM
NC(=O)C(CCC[NH3+])NC(=O)CCCCCCCCCCCNC(=O)C(CCCC[NH3+])NC(=O)CCCCCCCCCCCNC(=O)C(CCCC[NH3+])NC(=O)CCCCCCCCCCCNC(=O)C(N)CCCC[NH3+] | - | - | hypoxanthine uptake | FCR3 | 1.6 µM
COc1cc2nc(N3CCCN(C)CC3)nc(NC3CCN(Cc4ccccc4)CC3)c2cc1OC | - | - | fluorescence | Dd2 | 0.072 µM
Cc1[nH]nc2c1C(c1cc(C#N)cc(N3CCNCC3)c1)(C(C)C)C(C#N)=C(N)O2 | - | - | radiometric | NF54 | 4.15 µM
CC(=O)c1cccc(C2(O)C(N)=Nc3ccc(Cl)cc32)c1 | - | - | - | 3D7 | 0.529 µM
CCCCCCCCCCCC(=O)NC(CCCC[NH3+])C(=O)NCCCCCCCCCCCC(=O)NC(CCCC[NH3+])C(=O)NCCCCCCCCCCCC(=O)NC(CCCC[NH3+])C(=O)NCCCCCCCCCCCC(=O)NC(CCCC[NH3+])C(N)=O | - | - | hypoxanthine uptake | FCR3 | 0.7 µM
NC1=Nc2ccc(Cl)cc2[C@]1(O)c1ccccc1 | - | - | - | Dd2 | 0.675 µM
COC(=O)CCS(=O)(=O)N(C)c1cc(C#N)cc(C2(C(C)C)C(C#N)=C(N)Oc3n[nH]c(C)c32)c1 | - | - | radiometric | NF54 | 0.45 µM
CC(C)CCCC1CC2CCCC3CC(C)NC(=N1)N23 | - | - | LDH | D6 | 4.69 µM
CCCCCCCCCCCC(=O)NC(CCCC[NH3+])C(=O)NC(CCCC[NH3+])C(=O)NCCCCCCCCCC(=O)NC(CCCC[NH3+])C(N)=O | - | - | hypoxanthine uptake | NF54 | >10 µM
C[C@H]1CCc2c([nH]c3ccccc23)[C@@]2(N1)C(=O)Nc1ccc(Cl)cc12 | KAE609-resistant (D1247Y) | - | SYBR Green / fluorescence | KAE609R-3 | 0.119 µM
C#CCC[C@@H]1C[C@@H]2CC[C@@H]3C[C@H](CCC#C)NC(=N1)N32 | - | - | LDH | D6 | 9.66 µM